# Target: A(H1N1)pdm09-NA 247N (Influenza A virus, UniProt C3W5S3, S247N)
# Type: biochemical
smiles,measurement,value
"CC(=O)N[C@H]1[C@H]([C@H](O)[C@H](O)CO)OC(C(=O)O)=C[C@@H]1N=C(N)N [Zanamivir, zanamivir]",increase of the inhibitor's IC50 in comparison to wild-type NA-S247,up to five-fold increase

# Reference: article PMC11281601 (Viruses, 2024)
